From PMC3614987, “Exploring the Chemical Space around 8-Mercaptoguanine as a Route to New Inhibitors of the Folate Biosynthesis Enzyme HPPK” (PLoS ONE, 2013) come the findings set out here.

Protein sequences, listed by entry. Tags and fused reporters are not part of them. Residues count along the entry.
UniProt A0A0H3JXR3, 1-158: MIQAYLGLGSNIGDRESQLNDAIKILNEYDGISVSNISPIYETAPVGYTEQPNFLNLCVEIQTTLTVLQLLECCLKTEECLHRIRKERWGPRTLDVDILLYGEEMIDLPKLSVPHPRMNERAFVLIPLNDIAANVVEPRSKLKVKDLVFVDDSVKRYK

The assay deals with SaHPPK (Staphylococcus aureus, UniProt A0A0H3JXR3). Nature of the assay: SPR binding to SaHPPK. Conditions: read-out: K D a, in the presence of 10 mM Mg2+, 293 K. The source says: Initially, the binding of each of the test compounds to SaHPPK was quantitatively assessed using SPR (Fig. S1, S2). […] Moreover, all sensorgrams (Fig. S1 and S2) were of high quality and consistent with near perfect 1∶1 stoichiometric binding of analogues. Table 1 lists the estimated equilibrium dissociation constants (KD). […] This supports the hypothesis that the 8-mercapto group of 8-MG aids binding through the formation of one or more favorable interactions with SaHPPK.
All SPR binding experiments were performed as described previously. The only difference was the use of a sulfhydryl reactive maleimide-activated biotin derivative (Thermo Scientific, 1-biotinamido-4-(4′-[maleimidoethylcyclohexane]-carboxamido)butane. The maleimide-activated biotin was attached to the exposed surface cysteine residue of SaHPPK according to manufacturer’s instructions. The resulting site-specific biotinylated protein was immobilized onto the sensor chip surface using the Biotin capture kit (GE Healthcare). All analogues were serially diluted (either 2- or 3-fold from 126 µM down to 1.5 µM) in SPR binding buffer (50 mM HEPES, 150 mMNaCl, 1 mM TCEP, 0.05% (v/v) Tween-20, 10 mM MgCl2, 5% (v/v) DMSO, pH 8.0) and injected for 30 sec contact time at 60 µL/min and then allowed to dissociate for 60 sec. Binding sensorgrams were processed using the Scrubber (version 2c, BioLogic Software, Campbell, Australia). To determine the binding affinity (equilibrium dissociation constant; KD), responses at equilibrium for each compound were fit to a 1∶1 steady state affinity model available within Scrubber.
As to `Nc1nc2[nH]c(O)nc2c(=O)[nH]1`, the Kd turned out to be 257 µM.

For the molecule `Nc1nc2[nH]c(N3CCOCC3)nc2c(=O)[nH]1`, the Kd came to 246 µM. Take `Nc1nc2[nH]c(Br)nc2c(=O)[nH]1`: the Kd came out at 248 µM. Turning to `Cc1nc2c(=O)[nH]c(N)nc2[nH]1`, the Kd was determined as 159 µM.
